Results as given in publication PMC7925099, “Identification of an Antiretroviral Small Molecule That Appears To Be a Host-Targeting Inhibitor of HIV-1 Assembly” (Journal of Virology, 2021).

Test system: HIV-1 NL4-3
Format: cell-based
Settings: MT-2 cells

Row | SMILES | compound-specific resistance mutations after selection (37 passages, sequencing) | nonsynonymous mutations that arose upon selection (mutation no. relative to HXB2) (37 weeks, Sanger sequencing) | synonymous mutations that arose upon selection (mutation no. relative to HXB2) (37 weeks, Sanger sequencing)
1 | COc1cc(C)c(/C=C/C2NCCc3cc(OCc4ccccc4)c(OC)cc32)cc1OC (stereo not shown) [PAV-206] | no dominant PAV-206-specific mutations in the gag or pol genes | V218M Gag (V86M p24 Gag); also recorded: N302Y Env (N272Y gp120); also recorded: D547G Env (D36G gp41); also recorded: Q5_50H Env (Q39H gp41) | IATT 205 IATC Pol (IATT 50 IATC reverse trans.); also recorded: QCAG 552 QCAA Env (QCAG 41 QCAA gp41); also recorded: VGTG 583 VGTA Env (VGTG 72 VGTA gp41)
2 | Cc1c(O)cccc1C(=O)N[C@@H](CSc1ccccc1)[C@H](O)CN1C[C@H]2CCCC[C@H]2C[C@H]1C(=O)NC(C)(C)C [nelfinavir, reference compound] | – | A541V Env (A30V gp41); also recorded: Q550H Env (Q39H gp41); also recorded: H219Q Gag (H87Q p24 Gag); also recorded: A224T Gag (A92T p24 Gag); also recorded: L10F protease (L66F Pol); also recorded: V77I protease (V133I Pol); also recorded: L90M protease (L146M Pol); also recorded: S144R Env (S114R gp120) | –

Entries after “also recorded” stand apart in the source; their conditions may differ.
